Test system: HEL; call rule not given here
Test: Compound was evaluated for inhibitory activity against varicella zoster virus thymidine kinase (VZV TK-) 07/1 strain; NA=not active
Format: functional, cell-based, Homo sapiens
In short: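 HEL cell cultures, grown to confluence, received 100 CCID50 of virus. After 1 h adsorption, the inoculum was removed and the cultures were incubated with serial concentrations of compound (400, 200, 100, ... μg/mL).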

Nc1ncnc2c1ncn2CCOCP(=O)(O)O [ADEFOVIR]
EC50: Not Active
